Values of other authors, collected in publication PMC9227918 (Toxins, 2022).

Settings: postulated; cited from earlier work

Substance: satratoxin G
- biotransformation: fast biotransformation
